Results of unrelated studies side by side (data: NIAID ChemDB).

Common to all: tests in culture; organism: Mycobacterium tuberculosis

Inhibition is in % at the dose shown (toxicity tests: loss of growth or viability). MIC bound: limit read from a one-dose screen. MIC50, MIC90 and the like: level of inhibition, or share of isolates inhibited. Rows are shuffled and stem from different studies. a–b is a range or a potency band. Blank or dashed fields: not listed here. ECn: concentration that inhibits the pathogen or its effect by n%.

compound	strain	endpoint	dose	method	cells	setting	result
CO[C@H]1/C=C/O[C@@]2(C)Oc3c(C)c(O)c4c(O)c(c(/C=N/N5CCN(C)CC5)c(O)c4c3C2=O)NC(=O)/C(C)=C\C=C\[C@H](C)[C@H](O)[C@@H](C)[C@@H](O)[C@@H](C)[C@H](OC(C)=O)[C@@H]1C	16 strains (rifampicin-susceptible)	MIC50					0.1 µg/mL
Cc1ccc(C(=O)CCC(=O)NC[C@H]2CN(c3ccc(-n4cncn4)c(F)c3)C(=O)O2)c(C)c1	10 clinical isolates sensitive	MIC					0.5–1 µg/mL
C[C@H]1COc2c(N3CCN(C)CC3)c(F)cc3c(=O)c(C(=O)O)cn1c23	T10904	MIC					0.5 µg/mL
COc1cc(OC)c2c(=O)cc(-c3ccc(OC)c(I)c3)oc2c1	H37Rv	MIC					>12.5 µg/mL
CCCCCCCCCN1C(=O)C=CC1=O	H37Rv	MIC					≤20 µg/mL
CCCCCCOc1c(C(C)=O)cc(N)c2nccc(CC)c12	H37Rv	inhibition	6.25 µg/mL				0%
CCCN(CCC)CNC(=O)c1cnccn1	ATCC 35828	MIC					100 µg/mL
Cc1ccc(NC(=O)/C=C/c2ccccc2)cc1Cl	H37Rv	MIC bound		BACTEC			>12.5 µg/mL
O=C(Oc1ccc(Cl)cc1C(=O)Nc1cccc(F)c1)c1cnccn1	H37Rv 331/88	MIC				14 d	2 µM
NC1[C@H]2CN(c3nc4c(cc3F)c(=O)c(C(=O)O)cn4-c3ccc(F)cc3F)C[C@@H]12	44 isolates (resistant)	Mean MIC					34.6 µg/mL
Oc1ccccc1CNCCCNCc1ccccc1O	Sensitive strains	MIC					25 µg/mL
CN(C)C(=S)SCN1C(=O)c2ccccc2C1=O	INH-r	MIC					1.6 µg/mL
O=C(Oc1cc(Cl)ccc1C(=O)Nc1ccc(C(F)(F)F)cc1)c1cnccn1	multidrug resistant 9449/2006	MIC				14 d	0.125 µM
CC1(C)CN(C(=S)N2CC(C)(C)SC2=O)C(=O)S1	H37Rv	inhibition	12.5 µg/mL	BACTEC			0%
O=C(Cc1ccc(O)cc1)N1COC(c2sc3ccc(Oc4ccccc4)cc3c2Cl)=N1	H37Rv	inhibition	6.25 µg/mL				4%
O=C(NCN1CCNCC1)c1cnccn1	ATCC 35822	MIC					33 µg/mL
Oc1ccccc1CNCCCCCCCNCc1ccccc1O	H37Ra	MIC					<25 µg/mL
O=C(CCC(=O)c1cccs1)NC[C@H]1CN(c2ccc(N3CCCC3)c(F)c2)C(=O)O1	10 clinical isolates resistant	MIC					2–8 µg/mL
CCCCCCCCCCCCNC(CC(=O)OCC)c1cccc(Cl)c1	H37Ra	MIC					>25 µg/mL
O=C(Oc1ccc(Cl)cc1C(=O)Nc1ccc(Cl)c(Cl)c1)c1cnccn1	multidrug resistant 53/2009	MIC				21 d	1 µM
CCCCCCCCCCNC1CC(=O)N(CCCCCCCCCC)C1=O	Clinical isolate (isoniazid-resistant)	MIC					≤20 µg/mL
Nc1nc(N)c2nc3c(=O)[nH]c(=O)[nH]c3nc2n1	H37Rv	inhibition	12.5 µg/mL	BACTEC			7%
C[C@H]1COc2c(N3CCN(C)CC3)c(F)cc3c(=O)c(C(=O)O)cn1c23	11S	MIC					0.5 µg/mL
O=C(O)[C@H]1O[C@@H](n2cc([N+](=O)[O-])c(=O)[nH]c2=O)[C@H](O)[C@@H]1O	H37Rv	MIC bound		resazurin			>6.25 µg/mL
O=c1cc(-c2ccc(Cl)cc2)oc2ccccc12	H37Rv	inhibition	12.5 µg/mL				7%
COc1ccc(C2C(Cl)C(=O)C2NC(=O)c2sc3ccc(Oc4ccccc4)cc3c2Cl)cc1	H37Rv	inhibition	6.25 µg/mL				2%
CN=C(NC)c1ccc(NC(=O)/C=C/C(=O)Nc2ccc(C(=NC)NC)cc2)cc1	H37Rv	MIC bound		resazurin			>6.25 µg/mL
CCCCCCCCCCCCNCc1ccccn1	H37Ra	MIC					<25 µg/mL
CCCCCCCCOc1c(C(C)=O)cc(N)c2nccc(CC)c12	H37Rv	inhibition	6.25 µg/mL				10%
CO[C@H]1/C=C/O[C@@]2(C)Oc3c(C)c(O)c4c(O)c(c(/C=N/N5CCN(C6CCCC6)CC5)c(O)c4c3C2=O)NC(=O)/C(C)=C\C=C\[C@H](C)[C@H](O)[C@@H](C)[C@@H](O)[C@@H](C)[C@H](OC(C)=O)[C@@H]1C	Erdman	MBC					0.5 µg/mL
COc1cc([C@@H]2OC[C@@H]3C(c4ccc5c(c4)OCO5)OC[C@@H]32)cc(OC)c1OC	H37Rv	inhibition	12.5 µg/mL	BACTEC			0%
O=C(CN1C(=O)CCC1=O)Nc1ccc(N2CCCCC2)cc1	Clinical isolate (isoniazid-resistant)	MIC					≤20 µg/mL
COc1ccc(CCN2C(=O)C(=O)N(C3CCCCC3)C2=O)cc1OC	H37Rv	inhibition	12.5 µg/mL	BACTEC			0%
CC(C)c1cc(C(C)C)c2cccc([N+](=O)[O-])c2n1	H37Rv	inhibition	6.25 µg/mL				22%
CCCCCCCCC=CCCCCCCCCNCc1ccc(O)c(OC)c1	Clinical isolates MDR	MIC					25 µg/mL
CN1CCN(CNC(=O)c2cnccn2)CC1	ATCC 35828	MIC					300 µg/mL
CCCCCCCCCN1C(=O)CC(NCCCCCCC)C1=O	H37Rv	MIC					≤20 µg/mL
O=C(/C=C/c1cccc(Cl)c1)c1ccccc1O	H37Rv	MIC					20.3 µg/mL
O=C(Oc1ccc(Cl)cc1C(=O)Nc1cccc(C(F)(F)F)c1)c1cnccn1	H37Rv 331/88	MIC				21 d	2 µM
CC1(C)CC(N=c2cc3n(-c4ccc(Cl)cc4Cl)c4ccccc4nc-3cc2Nc2ccc(Cl)cc2Cl)CC(C)(C)N1	H37Rv	inhibition	0.005 µg/mL		Macrophages	inside macrophages	60%
O=[N+]([O-])c1cccc2cccnc12	H37Rv	inhibition	6.25 µg/mL				0%
O=C(CCC(=O)c1ccc(Cl)cc1)NC[C@H]1CN(c2ccc(-n3cncn3)c(F)c2)C(=O)O1	10 clinical isolates sensitive	MIC					4–16 µg/mL
CO/N=C1\CN(c2nc3c(cc2F)c(=O)c(C(=O)O)cn3C2CC2)CC1CN	206 isolates (susceptible)	MIC50					4 µg/mL
O=c1c(O)c(-c2ccccc2)oc2cc(Cl)ccc12	H37Rv	MIC					>12.5 µg/mL
CC(C)(C)c1ccc(C(=O)CCC(=O)NC[C@H]2CN(c3ccc(-n4cncn4)c(F)c3)C(=O)O2)cc1	10 clinical isolates sensitive	MIC					2–4 µg/mL
COc1cc(C2c3c(oc4ccccc4c3=O)Oc3oc4ccccc4c(=O)c32)cc(OC)c1O	H37Rv	MIC bound		BACTEC			>12.5 µg/mL
O=C(Oc1ccc(Br)cc1C(=O)Nc1ccc(C(F)(F)F)cc1)c1cnccn1	H37Rv 331/88	MIC				14 d	0.5 µM
CCCCCCCCCN1C(=O)CC(C)(SCCN)C1=O	H37Ra	MIC					≤20 µg/mL
CCOC(=O)c1cc2c3c(c(C(C)=O)c(O)c2[nH]1)N(C(C)=O)CC3	H37Rv	MIC bound		BACTEC			>12.5 µg/mL
CSc1ccc(CC(=O)N2COC(c3sc4ccc(Oc5ccccc5)cc4c3Cl)=N2)cc1	H37Rv	inhibition	6.25 µg/mL				3%
NC(=O)NC(=O)c1ccco1	H37Rv	inhibition	12.5 µg/mL	BACTEC			0%
COc1ccc(/C=C/C(=O)c2cc(I)ccc2O)cc1	H37Rv	MIC					>12.5 µg/mL
CC(=O)C1(N=Nc2ccc(S(=O)(=O)Nc3ccccn3)cc2)CCOC1=O	H37Rv	MIC bound		BACTEC			>12.5 µg/mL
CCCCCCCCCN1C(=O)CC(C)(SCC(N)C(=O)O)C1=O	H37Ra	MIC					≤20 µg/mL
CCCCCCCCNC(CC(=O)OCC)c1ccc(F)cc1	H37Ra	MIC					>25 µg/mL
Cc1ccc(Nc2n[nH]c(=S)s2)cc1F	H37Rv	MIC bound		BACTEC			>12.5 µg/mL
CCCCN(CCCC)CNC(=O)c1cnc(C)cn1	PZA-susceptible	MIC					100 µg/mL
CC(=O)OC1C(=O)[C@H]2[C@@H](CC=C3CC(O)CC(O)[C@@]32C)[C@@H]2CC[C@H]([C@H](C)C3CC(C)C(C)(C)O3)[C@@]12C	H37Rv	MIC		BACTEC			≥12.5 µg/mL
O=C(NC1C(=O)C(Cl)C1c1ccc(O)cc1)c1sc2ccc(Oc3ccccc3)cc2c1Cl	H37Rv	inhibition	6.25 µg/mL				7%
CCCCCCCCCN1C(=O)CC(SCCNC(=O)c2ccc(CCCC)cc2)C1=O	Clinical isolate (isoniazid-resistant)	MIC					≤20 µg/mL
NC(=O)c1csc(CCNC(=O)c2ccccc2)n1	H37Rv	MIC bound		BACTEC			>12.5 µg/mL
CCCCCCCCNC(CCO)c1cccc([N+](=O)[O-])c1	Sensitive strains	MIC					12.5 µg/mL
Nc1cccc2ccc(C3CCCCC3)nc12	H37Rv	MIC					>6.25 µg/mL
NC[C@@H]1O[C@H](O[C@H]2[C@@H](O)[C@H](O[C@@H]3[C@@H](O)[C@H](N)C[C@H](N)[C@H]3O[C@H]3O[C@H](CO)[C@@H](O)C[C@H]3N)O[C@@H]2CO)[C@H](N)[C@@H](O)[C@@H]1O[C@H]1O[C@H](CO)[C@@H](O)[C@H](O)[C@@H]1O	H37Rv (streptomycin-resistant)	EC50					25–50 µg/mL
NCC[C@H](O)C(=O)N[C@@H]1C[C@H](N)[C@@H](O[C@H]2O[C@H](CN)[C@@H](O)[C@H](O)[C@H]2O)[C@H](O)[C@H]1O[C@H]1O[C@H](CO)[C@@H](O)[C@H](N)[C@H]1O	TN3218 (W3)	MIC					>256 µg/mL
CN(C)CCCN1c2ccccc2Sc2ccc(Cl)cc21	ATCC 27294	MBC					20 µg/mL
CCCCCCCCCN1C(=O)CC(C)(SCCO)C1=O	H37Ra	MIC					≤20 µg/mL
O=C(O)C1CCCCC1c1c2ccc(=O)c(O)c-2oc2c(O)c(O)ccc12	H37Rv	inhibition	12.5 µg/mL	BACTEC			2%
CN(CNC(=O)c1cnccn1)Cc1ccccc1	ATCC 27294	MIC					100 µg/mL
O=C(Oc1ccc(Cl)cc1C(=O)Nc1ccc(C(F)(F)F)cc1)c1cnccn1	multidrug resistant Praha 1	MIC				14 d	0.125 µM
O=C(c1ccccc1)c1ccc2c(=O)c(C(=O)c3ccccc3)c(-c3ccccc3)oc2c1	H37Rv	MIC					>12.5 µg/mL
CCCCCCCCCN1C(=O)CC(NCCCCCCCC)C1=O	H37Rv	MIC					≤20 µg/mL
CC1(C)CC(N=c2cc3n(-c4cc(Cl)cc(Cl)c4)c4ccccc4nc-3cc2Nc2cc(Cl)cc(Cl)c2)CC(C)(C)N1	H37Rv	inhibition	0.005 µg/mL		Macrophages	inside macrophages	95%
CO[C@H]1/C=C/O[C@@]2(C)Oc3c(C)c(O)c4c(O)c(c(/C=N/N5CCN(C)CC5)c(O)c4c3C2=O)NC(=O)/C(C)=C\C=C\[C@H](C)[C@H](O)[C@@H](C)[C@@H](O)[C@@H](C)[C@H](OC(C)=O)[C@@H]1C	9S	MIC					1 µg/mL
Cc1cc(O)c(C(=O)/C=C/c2ccnc3ccccc23)c(=O)o1	H37Rv	MIC bound		BACTEC			>12.5 µg/mL
O=C(Cc1cccc(Oc2ccccc2)c1)N1COC(c2sc3ccc(Oc4ccccc4)cc3c2Cl)=N1	H37Rv	inhibition	6.25 µg/mL				24%
COc1ccc(C(OCC2OC(n3cnc4c(=O)n(Cc5ccccc5[N+](=O)[O-])nnc43)C(O)C2O)(c2ccccc2)c2ccc(OC)cc2)cc1	H37Rv	MIC bound		resazurin			>6.25 µg/mL
O=C(/C=C/c1ccccn1)c1ccccn1	H37Rv	MIC					>12.5 µg/mL
C[C@@]12C(=O)OC(=O)[C@]1(C)[C@H]1CC[C@@H]2O1	H37Rv	inhibition	12.5 µg/mL	BACTEC			19%
O=c1cc(-c2ccccc2)oc2ccc(Br)cc12	H37Rv	MIC					>12.5 µg/mL
N=C(N)/C=C/C(=O)O	H37Rv	MIC bound		BACTEC			>12.8 µg/mL
COc1c(C(C)=O)cc(N)c2ncccc12	H37Rv	inhibition	6.25 µg/mL				0%
CN(C)c1ccc(/C=C/C(=O)c2ccccn2)cc1	H37Rv	MIC					>12.5 µg/mL

11 of the rows above, restated:

compound	strain	endpoint	dose	method	cells	setting	result
CCCCCCCCCN1C(=O)CC(C)(SCC(N)C(=O)O)C1=O	H37Ra	MIC					≤20 µg/mL
Nc1cccc2ccc(C3CCCCC3)nc12	H37Rv	MIC					>6.25 µg/mL
O=C(CN1C(=O)CCC1=O)Nc1ccc(N2CCCCC2)cc1	Clinical isolate (isoniazid-resistant)	MIC					≤20 µg/mL
O=C(O)C1CCCCC1c1c2ccc(=O)c(O)c-2oc2c(O)c(O)ccc12	H37Rv	inhibition	12.5 µg/mL	BACTEC			2%
CO[C@H]1/C=C/O[C@@]2(C)Oc3c(C)c(O)c4c(O)c(c(/C=N/N5CCN(C)CC5)c(O)c4c3C2=O)NC(=O)/C(C)=C\C=C\[C@H](C)[C@H](O)[C@@H](C)[C@@H](O)[C@@H](C)[C@H](OC(C)=O)[C@@H]1C	16 strains (rifampicin-susceptible)	MIC50					0.1 µg/mL
CO/N=C1\CN(c2nc3c(cc2F)c(=O)c(C(=O)O)cn3C2CC2)CC1CN	206 isolates (susceptible)	MIC50					4 µg/mL
COc1ccc(/C=C/C(=O)c2cc(I)ccc2O)cc1	H37Rv	MIC					>12.5 µg/mL
CCCCCCCCCN1C(=O)CC(C)(SCCN)C1=O	H37Ra	MIC					≤20 µg/mL
O=C(O)[C@H]1O[C@@H](n2cc([N+](=O)[O-])c(=O)[nH]c2=O)[C@H](O)[C@@H]1O	H37Rv	MIC bound		resazurin			>6.25 µg/mL
O=C(/C=C/c1cccc(Cl)c1)c1ccccc1O	H37Rv	MIC					20.3 µg/mL
CC(C)c1cc(C(C)C)c2cccc([N+](=O)[O-])c2n1	H37Rv	inhibition	6.25 µg/mL				22%